PubChem BioAssay AID1259414 – Drosophila RNAi Screening Center – 2018

Purpose: 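Genome-wide screen for host control of endosymbiont load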 (primary screen)
Cell system: Drosophila JW18 cells infected with Wolbachia
Knock-down reagent: long dsRNA against Drosophila genes, 0.25 µg dsRNA per well of a 384-well plate
Timing: 5 days
Conditions: cells persistently infected with Wolbachia before knock-down; no added drug
Read-out: 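Automated imaging of bacterial rRNA staining divided by host cell count, reported as plate-normalised robust z-score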
Direction: Wolbachia per cell robust z: higher = more Wolbachia per host cell than the plate typical
Hit rule: 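Active if absolute robust z reaches 1.5 in two or more of three replicates, leaving out multi- or no-target dsRNAs, genes unexpressed in JW18 and A1 wells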
The screen tested about 24,000 reagents; shown is an unselected part of those that have a named target and a result. Of all reagents, about 1,210 (5%) got an active call. 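Inactive calls also include excluded dsRNAs with several or no targets, genes unexpressed in JW18, and well A1, regardless of score.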 A number with no mark means an inactive call. A plus sign joins genes that one reagent is predicted to hit.

| gene | amplicon | Wolbachia per cell robust z, rep 1 | Wolbachia per cell robust z, rep 2 | Wolbachia per cell robust z, rep 3 |
| --- | --- | --- | --- | --- |
| asRNA:ASTR + Rga | DRSC12364 | -0.955 | 0.258 | -3.74 |
| Best3 | DRSC09880 | 0.791 (active) | -1.86 | -2.6 |
| CG43331 | DRSC11671 | -1.95 | 0.857 | -0.258 |
| Trm1 | DRSC02951 | -0.0878 | 0.139 | 0.167 |
| Cox11 | DRSC22692 | 0.635 | 0.118 | -1.32 |
| mtsh | DRSC03070 | -0.643 | -0.854 | -0.129 |
| ScsbetaG | DRSC11294 | 2.31 | 1.09 | 0.927 |
| ScsbetaG | DRSC26044 | -0.259 | 0.185 | 0.568 |
| CG13138 | DRSC02235 | 0.641 | -3.86 | 0.14 |
| atlas | DRSC04183 | -0.936 | -0.404 | -0.715 |
| witty | DRSC02378 | -1.8 | -3.23 | -6.95 |
| witty | DRSC21650 | 0.0217 | 0.499 | -0.00235 |
| witty | DRSC26154 | -1.43 | -1.34 | -0.647 |
| Nup43 | DRSC16279 | -0.599 | -0.584 | 0.0497 |
| hob | DRSC08426 | -0.147 | 0.107 | 0.121 |
| hob | DRSC24675 | -0.23 | -0.128 | -0.674 |
| Gr59e | DRSC04276 | -1.13 | -0.875 | -0.722 |
| bb8 | DRSC15578 | 0.412 | 0.642 | -0.00179 |
| wal | DRSC07717 | -0.454 | 0.531 | -0.404 |
| wal | DRSC26330 | 1.7 | 1.37 | 0.332 |
| CG16723 | DRSC15138 | -3.19 | 0.574 | -3.74 |
| CG16723 | DRSC28144 | 0.672 | -1.21 | 0.744 |
| Sqor | DRSC08453 | -0.461 | -0.278 | 0.686 |
| Sqor | DRSC27056 | 1.19 | 1.12 | 3.02 |
| AstC-R2 | DRSC23467 | -4.73 | 1.59 | 0.508 |
| CG18540 | DRSC06767 | -0.797 | -0.986 | -2.21 |
| CG18540 | DRSC26991 | -1.03 | 0.552 | -1.93 |
| RpS12 | DRSC11270 | 2.15 (active) | 3.78 | 4.09 |
| SMC5 | DRSC11849 | -0.11 | -1.07 | -0.307 |
| CG1637 | DRSC18865 | -0.542 | -0.0633 | -1.14 |
| CG1637 | DRSC19748 | 0.123 | -0.426 | -1.57 |
| CG1637 | DRSC19749 | 0.174 | -3.95 | -0.0684 |
| CG1637 | DRSC29080 | 0.217 | 0.431 | -0.426 |
| Fpgs2 | DRSC00600 | 0 | -0.135 | -0.123 |

Part of the list above in another layout.
gene	amplicon	Wolbachia per cell robust z, rep 1	Wolbachia per cell robust z, rep 2	Wolbachia per cell robust z, rep 3
Gr59e	DRSC04276	-1.13	-0.875	-0.722
bb8	DRSC15578	0.412	0.642	-0.00179
wal	DRSC07717	-0.454	0.531	-0.404
wal	DRSC26330	1.7	1.37	0.332
